The subject of one experiment is A549 (lung carcinoma). Description: MTT cytotoxicity assay, A549. The format is cell-based, human. A general note: Tetrazolium assays rely on reduction of a dye to a coloured formazan, in cell work by metabolically active cells.
Experiment [1] has as its system MCF-7 (breast adenocarcinoma). Description: MTT cytotoxicity assay, MCF-7. The format is cell-based, human. To be noted: read-out: Cancer cell line IC50, MCF-7; MCF-7, MTT, 48 h, Table 2.
Experiment [2] concerns BEAS-2B normal cell line (human bronchial epithelial cell). The experiment is described as follows: MTT cytotoxicity assay, BEAS-2B normal cell line. The note with it: read-out: Cancer cell line IC50, BEAS-2B, selectivity experiment, Table 3.
Experiment [3] concerns HL-60, SMMC-7721, A549, MCF-7 and SW-480 human cancer cell lines. The experiment is described as follows: MTT cytotoxicity assay, five human cancer cell lines taken together. The format is cell-based. The note with it: read-out: IC50 values across the five cancer cell lines; HL-60, SMMC-7721, A549, MCF-7, SW-480; 48-h treatment; summary over all five lines.
Experiment [4] has as its system SW-480 (colon adenocarcinoma). Description: MTT cytotoxicity assay, SW-480. The format is cell-based, human. To be noted: read-out: Cancer cell line IC50, SW480, 48 h, Table 2.
For experiment [5], the system named is HL-60 (promyelocytic leukemia). Description: MTT cytotoxicity assay, HL-60. In kind it is cell-based, human. To be noted: read-out: Cancer cell line IC50, HL-60; HL-60, MTT, 48 h, Table 2.
Experiment [6] relates to SMMC-7721 (hepatocarcinoma). The experiment is described as follows: MTT cytotoxicity assay, SMMC-7721. The format is cell-based, human. To be noted: read-out: Cancer cell line IC50, SMMC-7721; SMMC-7721, MTT, 48 h, Table 2.
The mark [7] stands for this setting: read-out: Cancer cell line IC50, A549, 48 h, Table 2.
Setting [8] is: read-out: Cancer cell line IC50, A549, selectivity experiment, Table 3.

The results in this text go back to PMC4328002 (Natural Products and Bioprospecting, 2015).

Like-named read-outs stand apart in the source and are kept apart here. Some results are limits rather than exact numbers.

As a reminder, the IC50 is the concentration needed to halve the response being measured. Consider `CC1=C[C@H]2O[C@@H]3C[C@@H](O)[C@](C)([C@@]2(C)CC1)[C@]31CO1`, for which the 50% inhibitory concentration (IC50) in the experiment with A549 (lung carcinoma) (setting [7]) was 1010 nM; with A549 (lung carcinoma) (setting [8]), 1540 nM; in experiment [1], 3430 nM; in experiment [2] it was 1060 nM; in experiment [3] it was less than 3500 nM; in experiment [4], 1870 nM. In addition, the half-maximal inhibitory concentration (IC50) was determined as 1530 nM in experiment [5] and 2140 nM in experiment [6].

As for `C/C=C\C(=O)O[C@@H]1C[C@H]2O[C@@H]3C=C(C)C(O)C[C@]3(C)[C@]1(C)[C@]21CO1` (stereo partly drawn), the IC50 with A549 (lung carcinoma) (setting [7]) is 400 nM; in the experiment with A549 (lung carcinoma) (setting [8]) it was 560 nM; in experiment [1], 540 nM; in experiment [2] it was 450 nM; in experiment [3] it was less than 3500 nM; in experiment [4], 350 nM. The IC50 in experiment [5] turned out to be 1680 nM; in experiment [6], 450 nM.

With `C/C=C\C(=O)O[C@@H]1C[C@H]2O[C@@H]3C=C(C)CC[C@]3(C)[C@]1(C)[C@]21CO1`, the IC50 in the experiment on A549 (lung carcinoma) (setting [7]) is 140 nM; with A549 (lung carcinoma) (setting [8]), 150 nM; in experiment [1], 230 nM; in experiment [2] it was 110 nM; in experiment [3], less than 3500 nM; in experiment [4] it was 150 nM. For the same compound, the half-maximal inhibitory concentration (IC50) amounted to 100 nM in experiment [5] and 150 nM in experiment [6].
